# Patent publication US7968752B2, “Hydrolytically-resistant boron-containing therapeutics and methods of use” (Anacor Pharmaceuticals, Inc., priority 2003, dated 2011)
# Tested on: 17D strain YFV virus
# Format: cell-based, Yellow Fever (YFV)
# Conditions: TC50/IC50
row,Compound,Anti-Yellow Fever Activity Antiviral Index
1,"Fc1ccc2c(c1)COB2c1cccc(Cl)c1 [Compound 11, 1-(3-Chlorophenyl)-5-fluoro-1,3-dihydrobenzo[c][1,2]oxaborole]",6.38
2,"Fc1cccc(B2OCc3cc(Cl)ccc32)c1 [Compound 13, 5-Chloro-1-(3-Fluorophenyl)-1,3-dihydrobenzo[c][1,2]oxaborole]",4.48
3,"N#Cc1cccc(B2OCc3ccccc32)c1 [Compound 14, 3-(Benzo[c][1,2]oxaborol-1(3H)-yl)benzonitrile]",14.91
4,"Fc1ccc2c(c1)B(c1cccc(Cl)c1)OC2 [Compound 15, 1-(3-Chlorophenyl)-6-fluoro-1,3-dihydrobenzo[c][1,2]oxaborole]",5.53
5,"Clc1ccc(B2OCc3ccccc32)cc1 [Compound 17, 1-(4-Chlorophenyl)-1,3-dihydrobenzo[c][1,2]oxaborole]",4.11
6,"N#Cc1ccc(B2OCc3ccccc32)cc1 [Compound 18, 4-(Benzo[c][1,2]oxaborol-1(3H)-yl)benzonitrile]",8.91
7,"N#Cc1cccc(B2OCc3cc(F)ccc32)c1 [Compound 20, 3-(5-Fluorobenzo[c][1,2]oxaborol-1(3H)-yl)benzonitrile]",12.98
8,"N#Cc1cccc(B2OCc3ccc(F)cc32)c1 [Compound 21, 3-(6-Fluorobenzo[c][1,2]oxaborol-1(3H)-yl)benzonitrile]",6.72

# No dose or concentration is given here for some results.
